Assay results from patent US6110901A (priority 1992, dated 2000).

Chains of the proteins cited; added tags and fusions are not shown. Residues count along the entry.
UniProt P03300, 1749-2209 limits assumed: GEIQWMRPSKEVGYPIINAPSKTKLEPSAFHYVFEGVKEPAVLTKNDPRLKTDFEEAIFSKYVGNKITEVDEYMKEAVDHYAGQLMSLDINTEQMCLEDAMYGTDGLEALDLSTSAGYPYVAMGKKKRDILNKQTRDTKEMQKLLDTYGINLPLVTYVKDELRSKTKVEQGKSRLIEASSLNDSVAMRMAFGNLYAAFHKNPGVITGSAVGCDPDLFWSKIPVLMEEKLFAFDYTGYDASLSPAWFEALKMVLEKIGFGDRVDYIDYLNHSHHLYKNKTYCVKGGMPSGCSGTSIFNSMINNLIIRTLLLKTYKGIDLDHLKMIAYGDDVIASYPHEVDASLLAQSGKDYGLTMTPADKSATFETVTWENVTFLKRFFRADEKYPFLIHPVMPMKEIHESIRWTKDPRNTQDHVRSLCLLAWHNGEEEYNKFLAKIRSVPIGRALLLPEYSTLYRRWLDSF

Each compound was assayed against Recombinant poliovirus RNA polymerase (Poliovirus type 1, UniProt P03300).

Structure (SMILES)	Inhibition of transcription with the RNA-dependent RNA polymerase of poliovirus
Nc1ccn([C@@H]2O[C@H](COP(=O)(O)OP(=O)(O)OP(=O)(O)O)C[C@H]2O)c(=O)n1 [3'-d CTP, 3'-deoxy-CTP]	effective inhibitors
Nc1nc2c(ncn2[C@@H]2O[C@H](COP(=O)(O)OP(=O)(O)OP(=O)(O)O)C[C@H]2O)c(=O)[nH]1 [3'-d GTP, 3'-deoxy-GTP]	effective inhibitors
O=c1ccn([C@@H]2O[C@H](COP(=O)(O)OP(=O)(O)OP(=O)(O)O)C[C@H]2O)c(=O)[nH]1 [3'-d UTP, 3'-deoxy UTP]	effective inhibitors
